# Laboratory results reported in PubChem BioAssay AID720706 (Broad Institute, 2013).
# The entries are a selection whose mix differs from that of the whole data set. Some salts or complexes appear as unconnected parts, following the source record. Calls of active or inactive are those of the source.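 The calls were made as follows: active = significant combined selectivity score with lowered wild-type GFP, culture density cut under 30%, mutant RFP and density less affected; inactive = any of these conditions unmet.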
# Assay: reduced GFP signal of wild-type E. coli, primary screen, bacterial rRNA inhibitor project, GFP/RFP fluorescence, OD600, single point (AID 720706)
# Settings: E. coli WT GFP vs humanized-ribosome RFP mutants, 24 h, stronger effect = lower value, DMSO median 0, no signal -100
row,SMILES,GFP signal change (wild-type ribosome)
1,O=C(OC1CN2CCC1CC2)c1ccccc1 (centres undefined),inactive: 4.1%
2,Cc1c([N+](=O)[O-])cc([N+](=O)[O-])c(Br)c1[N+](=O)[O-],inactive: -0.445%
3,Cc1ccc(OP(=O)(Nc2ccccn2)Oc2ccc(C)cc2)cc1,inactive: -22.8%
4,CC(NC(=O)COC(=O)C(O)(c1ccccc1)c1ccccc1)c1ccccc1 (centres undefined),inactive: -6.93%
5,Cc1ccccc1OP(=O)(Nc1ccccn1)Oc1ccccc1C,inactive: -30.2%
6,O=c1c2cc([N+](=O)[O-])ccc2[nH]c2c([N+](=O)[O-])cc([N+](=O)[O-])cc12,inactive: 9.28%
7,CCCCCOc1ccc(NP(C)(=O)Oc2ccc(Cl)cc2Cl)cc1 (centres undefined),inactive: 12.2%
8,O=[N+]([O-])c1cc([N+](=O)[O-])c(OC2CCCCC2O)c([N+](=O)[O-])c1 (centres undefined),inactive: -7.35%
9,CN(C)C(=O)Oc1noc2ccccc12,inactive: 18.1%
10,c1ccc(-c2nn[nH]n2)c(-c2nn[nH]n2)c1,inactive: 13.7%
11,Cc1ccc(NP(=O)(Oc2cccc(C)c2)Oc2cccc(C)c2)nc1,inactive: 5.95%
12,CCNC(=S)/N=C(\N)N[N+](=O)[O-],inactive: 12.1%
13,O=C(NC1CCS(=O)(=O)C1)NP(=S)(Oc1ccccc1)Oc1ccccc1 (centres undefined),inactive: -14.8%
14,COc1ccc(OP(C)(=O)Nc2ccc(SC(F)(F)F)cc2)cc1 (centres undefined),inactive: 1.12%
15,O=P1(N(CCCl)CCCl)OCCC2CCCCN21 (centres undefined),inactive: 5.88%
16,Cc1ccccc1CN(C)C(=O)COC(=O)C(O)(c1ccccc1)c1ccccc1,inactive: -24.4%
17,O=C(OCCN1CCN(CCOCc2ccccc2)CC1)C(O)(c1ccccc1)c1ccccc1,inactive: -7.54%
18,C[C@H]1OP(=O)(Oc2ccccc2)C[C@@H]2O[C@@H]21 (some centres undefined),inactive: 5.9%
19,C[C@@H]1C=CCP(=O)(Oc2ccccc2)O1 (some centres undefined),inactive: 7.78%
20,CC(=O)c1ccc(N2CC2c2ccncc2)cc1 (centres undefined),inactive: 9.53%

row,SMILES,GFP signal change (wild-type ribosome)
1,N#C/C(=C\c1ccc(N(CCBr)CCBr)cc1)C(N)=O,inactive: 3.68%
2,O=C(OC1CN2CCC1CC2)c1ccc([N+](=O)[O-])cc1 (centres undefined),inactive: 5.3%
3,COC(=O)C1(C)COP(=O)(NCc2ccccc2)OC1 (centres undefined),inactive: 6.05%
4,CC(=O)Nc1ccc([As](=O)(O)O)c(O)c1,inactive: 13.3%
5,COc1ccc2c(c1O)-c1c(O)c(OC)cc3c1[C@H](C2)[N+](C)(C)CC3.O=[N+]([O-])c1cc([N+](=O)[O-])c([O-])c([N+](=O)[O-])c1[O-],inactive: 25.7%
6,O=[N+]([O-])c1cc([N+](=O)[O-])c(Nc2ccc(Cl)cc2)c([N+](=O)[O-])c1,inactive: -58%
7,CCOc1ccc(C2=NCC(CBr)S2)cc1 (centres undefined),inactive: 4.18%
8,CC(C)(C)C(=O)NC(Sc1ccccc1)C(Cl)(Cl)Cl (centres undefined),inactive: -26.5%
9,CC(C)c1ccc(OP(C)(=O)Nc2ccc(SC(F)(F)F)cc2)cc1 (centres undefined),inactive: -3.97%
10,CCc1cc(O)c([N+](=O)[O-])c(C)c1[N+](=O)[O-],inactive: -50%
11,CP(=O)(Nc1ccccc1F)Oc1ccccc1 (centres undefined),inactive: 6.92%
12,CP(=O)(Nc1ccc(SC(F)(F)F)cc1)Oc1ccc(F)cc1 (centres undefined),inactive: -39%
13,CCOP(=O)(CC)OCC,inactive: 4.53%
14,O=[As](O)(c1ccccc1)c1ccc(O)cc1,inactive: -0.828%
15,Cc1cc(-c2cccc3ccccc23)c(C)cn1.O=[N+]([O-])c1cc([N+](=O)[O-])c(O)c([N+](=O)[O-])c1,inactive: -25.2%
16,O=[N+]([O-])c1cc([N+](=O)[O-])c(NCC2CCS(=O)(=O)C2)c([N+](=O)[O-])c1 (centres undefined),inactive: 1.24%
17,CC(=O)NC(SC(=S)N(C)C)C(Cl)(Cl)Cl (centres undefined),inactive: 18.1%
18,O=[N+]([O-])c1ccc(OP2(=O)COCCO2)cc1 (centres undefined),inactive: -4.12%
19,O=[N+]([O-])c1ncn(CCn2cnc([N+](=O)[O-])n2)n1,inactive: 5.97%
20,Cc1c(C(c2ccc3c(c2)OCO3)c2c(C)n(C)n(-c3ccccc3)c2=O)c(=O)n(-c2ccccc2)n1C.O=[N+]([O-])c1cc([N+](=O)[O-])c(O)c([N+](=O)[O-])c1,inactive: 5.27%

row,SMILES,GFP signal change (wild-type ribosome)
1,C/C(N)=N\P(=O)(OCc1ccccc1)OCc1ccccc1,inactive: 1.09%
2,C(Cc1nn[nH]n1)Cc1nn[nH]n1,inactive: 3.43%
3,Nc1ccc([As](=O)(O)c2ccc([N+](=O)[O-])cc2)cc1,inactive: 6.93%
4,O=P(Nc1ccccn1)(c1ccc(Br)cc1)c1ccc(Br)cc1,inactive: 6.26%
5,CN(C)C1(CNC(=O)c2ccc(Cl)c(S(N)(=O)=O)c2)CCCCC1,inactive: 9.09%
6,COc1ccc(NP(C)(=O)Oc2ccccc2OC)cc1 (centres undefined),inactive: 3.17%
7,O=P(Nc1nc2ccccc2s1)(c1ccccc1)c1ccccc1,inactive: -16.7%
8,C[C@H]1OP(=O)(Oc2ccccc2)[C@H](O)[C@H](O)[C@H]1N=[N+]=[N-] (some centres undefined),inactive: 8.86%
9,O=[N+]([O-])c1ncn(CCn2ncnc2[N+](=O)[O-])n1,inactive: 9.79%
10,CC(C)(C)C(=O)NC(Sc1ccncn1)C(Cl)(Cl)Cl (centres undefined),inactive: 8.66%
11,O=C(O)CNc1ccc([As](=O)(O)O)cc1,inactive: 12.3%
12,COC(=O)C1(C)COP(=O)(Nc2ccccc2)OC1 (centres undefined),inactive: 7.12%
13,O=[N+]([O-])c1cccc(NC2=NCC(CBr)S2)c1 (centres undefined),inactive: -2.8%
14,O=P1(N(CCCl)CCCl)OCCCS1 (centres undefined),inactive: 13.8%
15,Nc1ccc2c(ccc3cccnc32)n1.O=[N+]([O-])c1cc([N+](=O)[O-])c(O)c([N+](=O)[O-])c1,inactive: -23.2%
16,CCOC(=O)c1ccc(NP(C)(=O)Oc2ccc(Cl)cc2)cc1 (centres undefined),inactive: -17.2%
17,O=C(Nc1cc([As](=O)(O)O)ccc1O)c1ccccc1,inactive: 6.43%
18,CCN(/C(=N/P(=O)(N1CCOCC1)N1CCOCC1)N1CCOCC1)c1ccc(OC)cc1,inactive: 4.43%
19,COc1ccccc1OP(C)(=O)Nc1ccccc1Br (centres undefined),inactive: -6.8%
